Data as given in US20020076693A1, “Novel cell surface receptor for HIV retroviruses, therapeutic and diagnostic uses” (priority 1997, published 2002).

What was measured:
[1] = molecular target: gp120 binding to the V3 loop-BPs; conditions: read-out: IC50 for the inhibition of gp120 binding to the V3 loop-BPs; TASP constructs, gp120 HIV-1 Lai, biosensor
[2] = i.v.; for effects on the behaviour of rats / innocuity: up to 3 mg/kg

5[Kψ(CH2N)PR]-TASP
IC50 [1]: ~25 nM and 25 nM | effect on examination of sacrificed rats ([2]; sacrificed at 48 hours): No apparent effect | effects on the behaviour of rats / innocuity [2]: No apparent effects | effects on the behaviour of rats / innocuity ([2]; listed as 5[Kψ (CH2N)PR]-TASP): total inoccuity

“And” between values parts separate entries of the source, which are not always exact repeats. Identical values can stand only once. Like-named read-outs stand apart in the source and are kept apart here.
